PubChem BioAssay AID1259414, Drosophila RNAi Screening Center, 2018

Test: 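Host factors increasing or decreasing Wolbachia levels in cultured fly cells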 (primary screen)
Cell system: Drosophila JW18 cells infected with Wolbachia
Reagents: long dsRNA against Drosophila genes, 0.25 µg dsRNA per well of a 384-well plate
Timing: 5 days
Treatment: cells persistently infected with Wolbachia before knock-down; no added drug
Measurement: 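Imaged fluorescence in situ signal for Wolbachia 23S rRNA per DAPI-counted host cell, given as a robust z-score within each plate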
Direction: Wolbachia per cell robust z: higher = more Wolbachia per host cell than the plate typical
Active means: 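Active if absolute robust z reaches 1.5 in two or more of three replicates, leaving out multi- or no-target dsRNAs, genes unexpressed in JW18 and A1 wells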
The deposit covers about 24,000 reagents; shown is a random part of those with a known target gene and a result. Over the whole deposit, about 1,210 (5%) got an active call. 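Inactive calls also include excluded dsRNAs with several or no targets, genes unexpressed in JW18, and well A1, regardless of score.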 A number with no mark means an inactive call. A plus sign joins genes that one reagent is predicted to hit.

| Gene | amplicon | Wolbachia per cell robust z, rep 1 | Wolbachia per cell robust z, rep 2 | Wolbachia per cell robust z, rep 3 |
| --- | --- | --- | --- | --- |
| CG2147 | DRSC18211 | 1.42 | -0.0254 | 0.994 |
| BHD | DRSC11017 | -2.97 | -0.56 | -1.17 |
| BHD | DRSC22833 | -1.12 | -1.36 | -2.69 |
| BHD | DRSC27469 | -0.247 | 0.199 | -0.872 |
| CG2157 | DRSC19836 | -1.89 | -2.04 | 0.251 |
| CG8243 | DRSC07122 | -0.26 | 0.647 | 0.437 |
| CG8243 | DRSC23414 | 0.368 | -0.086 | 0.707 |
| Su(z)12 | DRSC11293 | 0.148 | -2.08 | -0.288 |
| Su(z)12 | DRSC26081 | 1.45 | -1.34 | 2.82 |
| ppk23 | DRSC20110 | -4.92 | 0.411 | -0.0754 |
| ppk23 | DRSC26441 | -0.0973 | 0.261 | -0.0318 |
| CG13217 | DRSC06339 | -2.29 | -2.5 | 1.05 |
| CG16985 | DRSC08501 | -2.48 | -0.954 | -0.304 |
| Tailor | DRSC12526 | 0.206 | -0.963 | -0.734 |
| tsu | DRSC07265 | 1.33 | 1.56 | -0.132 |
| CG9497 | DRSC03234 | 0.187 | -0.0255 | 0.182 |
| CG9497 | DRSC25510 | 0.331 | 0.0686 | -1.78 |
| CG10068 | DRSC12508 | -0.0689 | 1.24 | -0.119 |
| HLH3B | DRSC18669 | 0.818 | 0.0909 | -3.36 |
| HLH3B | DRSC25447 | -0.635 | -0.124 | -0.755 |
| CG7387 | DRSC10833 | -0.153 | 0.52 | -0.423 |
| CG7368 | DRSC10826 | 1.91 | 2.84 | 0.776 |
| CG7368 | DRSC22821 | 0.281 | 0.212 | -4.7 |
| CG7368 | DRSC29098 | -2.1 | -0.138 | -1.08 |
| Vha13 | DRSC16895 | -1.36 | -2.3 | -0.895 |
| CG9967 | DRSC00742 | -2.48 | -1.28 | -1.47 |
| CG9967 | DRSC25344 | -0.379 | -0.341 | -1.48 |
| Nulp1 | DRSC09677 | 0.384 | -0.918 | 0.932 |
| Appl | DRSC17728 | -0.722 | -1.05 | -0.297 |
| Appl | DRSC27476 | 0.253 | -0.146 | -0.303 |
| Gr64d + Gr64e | DRSC08446 | -1.88 | -1.64 | -0.183 |
| Wdfy2 | DRSC02822 | 0.696 | -0.00704 | 1.58 |
| Wdfy2 | DRSC29755 | -0.181 | -5.66 | 0.438 |
| Cyp6a23 | DRSC07383 | -0.0253 | -2.17 | -0.862 |
| Cyp6a23 | DRSC29473 | -1.07 | -1.68 | -1.04 |

Laid out differently: results already given.
{"Gene":"CG2147","amplicon":"DRSC18211","Wolbachia per cell robust z, rep 1":1.42,"Wolbachia per cell robust z, rep 2":-0.0254,"Wolbachia per cell robust z, rep 3":0.994}
{"Gene":"BHD","amplicon":"DRSC11017","Wolbachia per cell robust z, rep 1":-2.97,"Wolbachia per cell robust z, rep 2":-0.56,"Wolbachia per cell robust z, rep 3":-1.17}
{"Gene":"BHD","amplicon":"DRSC22833","Wolbachia per cell robust z, rep 1":-1.12,"Wolbachia per cell robust z, rep 2":-1.36,"Wolbachia per cell robust z, rep 3":-2.69}
{"Gene":"BHD","amplicon":"DRSC27469","Wolbachia per cell robust z, rep 1":-0.247,"Wolbachia per cell robust z, rep 2":0.199,"Wolbachia per cell robust z, rep 3":-0.872}
{"Gene":"CG2157","amplicon":"DRSC19836","Wolbachia per cell robust z, rep 1":-1.89,"Wolbachia per cell robust z, rep 2":-2.04,"Wolbachia per cell robust z, rep 3":0.251}
{"Gene":"CG8243","amplicon":"DRSC07122","Wolbachia per cell robust z, rep 1":-0.26,"Wolbachia per cell robust z, rep 2":0.647,"Wolbachia per cell robust z, rep 3":0.437}
{"Gene":"CG8243","amplicon":"DRSC23414","Wolbachia per cell robust z, rep 1":0.368,"Wolbachia per cell robust z, rep 2":-0.086,"Wolbachia per cell robust z, rep 3":0.707}
{"Gene":"Su(z)12","amplicon":"DRSC11293","Wolbachia per cell robust z, rep 1":0.148,"Wolbachia per cell robust z, rep 2":-2.08,"Wolbachia per cell robust z, rep 3":-0.288}
{"Gene":"Su(z)12","amplicon":"DRSC26081","Wolbachia per cell robust z, rep 1":1.45,"Wolbachia per cell robust z, rep 2":-1.34,"Wolbachia per cell robust z, rep 3":2.82}
{"Gene":"ppk23","amplicon":"DRSC20110","Wolbachia per cell robust z, rep 1":-4.92,"Wolbachia per cell robust z, rep 2":0.411,"Wolbachia per cell robust z, rep 3":-0.0754}
{"Gene":"ppk23","amplicon":"DRSC26441","Wolbachia per cell robust z, rep 1":-0.0973,"Wolbachia per cell robust z, rep 2":0.261,"Wolbachia per cell robust z, rep 3":-0.0318}

Additional reagents follow:
| Gene | amplicon | Wolbachia per cell robust z, rep 1 | Wolbachia per cell robust z, rep 2 | Wolbachia per cell robust z, rep 3 |
| --- | --- | --- | --- | --- |
| abs | DRSC12372 | 0.588 | -0.0177 | -0.23 |
| phtm | DRSC20237 | 0.452 | -0.817 | 0.309 |
| phtm | DRSC26997 | 0.387 | -0.332 | -0.614 |
| CG31495 | DRSC16762 | 0.763 | -0.0024 | -1.28 |
| CG31495 | DRSC29177 | -2.4 (active) | -1.21 | -1.61 |
| CG12426 | DRSC14516 | -4.94 | -0.789 | -0.66 |
| Prestin | DRSC10507 | 1.6 | 0.436 | 1.17 |
| Ctu2 | DRSC02024 | -0.762 | -0.23 | -0.567 |
| Ctu2 | DRSC29317 | -0.905 | 0.432 | 0.000697 |
| shd | DRSC11129 | 0.276 | -1.38 | 0.348 |
| CG5292 | DRSC15763 | -1.7 (active) | -1.51 | -0.488 |
| CG5292 | DRSC26304 | 0.487 | -0.816 | 0.0498 |
| ArfGAP3 | DRSC11794 | 0.199 | -0.575 | -0.588 |
| ArfGAP3 | DRSC25639 | -0.262 | 0.296 | -0.573 |
| CG15358 | DRSC00388 | -1.06 | 0.125 | -0.407 |
| Spp | DRSC00328 | -2.78 | -0.547 | -0.871 |
| qkr54B | DRSC07670 | -1.53 (active) | -2.4 | -2.34 |
| qkr54B | DRSC24863 | -0.17 | -0.26 | -0.455 |
| Spc25 | DRSC14164 | 0.0463 | 0.808 | 1.04 |
| Cyp49a1 | DRSC06737 | 0.137 | -5.5 | 0.0238 |
| Cyp49a1 | DRSC07367 | 0.0472 | -0.254 | 0.0715 |
| CG10962 | DRSC18421 | 1.57 | -0.0945 | -0.3 |
| CG10962 | DRSC29512 | -0.449 | -6.03 | -7.8 |
| alphaKap4 | DRSC09823 | -4.99 | 1.2 | 0.166 |
| UK114 | DRSC01973 | 0.775 | 0.428 | -6.49 |
| CG30427 | DRSC04014 | 0.505 | -2.45 | -2 |
| CG30427 | DRSC04311 | 0.016 | -0.966 | 0.0209 |
| CG30427 | DRSC04323 | -0.664 | -0.0268 | 0.306 |
| CG30427 | DRSC26361 | -6.34 | -8.39 | -1.31 |
| ph-d | DRSC23191 | -1.36 | 0.526 | 0.708 |
| ph-d | DRSC29736 | 0.835 | -0.0575 | -0.419 |
| CG3397 | DRSC15487 | -2.75 | 0.298 | 2.02 |
| Ns1 | DRSC15529 | 0.141 | 0.62 | 2.43 |
